A mixed list of measured activities; the numbers were collected in NIAID ChemDB.

Shared fields: tests in culture; species: Varicella zoster virus; endpoint: EC50

a–b is a range or a potency band.

Nc1ncnc2c1ncn2C[C@@H](CO)OCP(=O)(O)O ; read by: plaque count ; strain or isolate: PCV-resistant/A ; cell line: HEL ; value: 0.0035 µg/mL
Nc1nc(Cl)nc2c1ncn2/C=C1/CC1CO ; read by: cytopathic effect ; cell line: HFF ; value: >0.8 µM
C[C@H](COc1cc(N)nc(N)n1)OCP(=O)(O)O ; read by: cytopathic effect ; strain or isolate: OKA ; value: 17 µM
CC(=O)CCC(=O)O[C@H]1C[C@H](n2cc(/C=C/Br)c(=O)[nH]c2=O)O[C@@H]1COP1(=O)OCc2ccccc2O1 ; read by: plaque count ; strain or isolate: OKA ; cell line: HELF ; value: 0.046 µg/mL
CCC#Cc1ccc2c(c1)c(=O)c(C(=O)NCc1ccc(Cl)cc1)nn2C ; value: <20 µM
Nc1ncnc2c1ncn2CCOCP(=O)(O)O ; read by: cytopathic effect ; strain or isolate: OKA ; value: 38 µM
Nc1nc(F)nc2c1ncn2/C=C1\CC1CO ; read by: cytopathic effect ; cell line: HFF ; value: >69 µM
Nc1ncnc2c1ncn2[C@@H]1C[C@@H](O)[C@H](CO)O1 ; cell line: HFF ; value: >100 µM
C=C1[C@H](CO)[C@@H](O)C[C@@H]1n1cnc2c(=O)[nH]c(N)nc21 ; strain or isolate: ELLEN ; cell line: HFF ; value: 30–60 µM
Nc1nc(F)nc2c1ncn2/C=C1/CC1CO ; read by: cytopathic effect ; cell line: HFF ; value: >4 µM
Nc1ncnc2c1ncn2[C@@H]1C=C(CO)[C@@H](O)[C@H]1O ; read by: cytopathic effect ; strain or isolate: YS/R (TK-) ; cell line: HEL ; value: 1.9 µg/mL
CC[C@H](C)[C@H](N)C(=O)O[C@H]1C[C@H](n2cc(/C=C/Br)c(=O)[nH]c2=O)O[C@@H]1COP1(=O)OCc2cccc(C)c2O1 ; read by: plaque count ; strain or isolate: OKA ; cell line: HELF ; value: 0.025 µg/mL
Nc1ccn([C@@H]2C[C@@H](O)[C@H](CO)O2)c(=O)n1 ; cell line: HFF ; value: >100 µM
Nc1cc(OCCOCP(=O)(O)O)nc(N)n1 ; read by: cytopathic effect ; strain or isolate: YS ; value: 2.7 µM
C[C@H](COc1cc(N)nc(N)n1)OCP(=O)(O)O ; read by: cytopathic effect ; strain or isolate: 07/1 (TK-) ; cell line: HEL ; value: 5.7 µg/mL
Nc1ncnc2c1ncn2CCOCP(=O)(O)O ; read by: cytopathic effect ; strain or isolate: Oka CF1603-resistant ; cell line: HEL ; value: 21.7 µM
Nc1nc2c(ncn2C[C@]2(CO)C[C@H]2CO)c(=O)[nH]1 ; value: 0.1–1 µM
CC(=O)CCC(=O)O[C@H]1C[C@H](n2cc(/C=C/Br)c(=O)[nH]c2=O)O[C@@H]1COP1(=O)OCc2cccc(C)c2O1 ; read by: plaque count ; strain or isolate: OKA ; cell line: HELF ; value: 0.039 µg/mL
O=C1Cn2cc(C(=O)NCc3ccc(Cl)cc3)c(=O)c3cc(CN4CCOCC4)cc(c32)N1 ; value: 0.06 µM
Nc1nc2c(ncn2CCC(CO)CO)c(=O)[nH]1 ; value: 1–10 µM
CCC(=O)O[C@H]1C[C@H](n2cc(/C=C/Br)c(=O)[nH]c2=O)O[C@@H]1COP1(=O)OCc2cccc(C)c2O1 ; read by: plaque count ; strain or isolate: OKA ; cell line: HELF ; value: 0.03 µg/mL
C[C@H](Cn1cnc2c(NC3CC3)ncnc21)OCP(=O)(O)O ; strain or isolate: OKA (TK+) ; value: 0.009 µg/mL
Nc1nc(OCCOCP(=O)(O)O)cc(OCCOCP(=O)(O)O)n1 ; read by: cytopathic effect ; strain or isolate: YS/R (TK-) ; cell line: HEL ; value: 50 µg/mL
Cc1cccc2c1OP(=O)(OC[C@H]1O[C@@H](n3cc(/C=C/Br)c(=O)[nH]c3=O)C[C@@H]1O)OC2 ; read by: plaque count ; strain or isolate: OKA ; cell line: HELF ; value: 0.037 µg/mL

For reference, 3 entries again:

structure,read by,strain or isolate,cell line,value
C[C@H](COc1cc(N)nc(N)n1)OCP(=O)(O)O,cytopathic effect,OKA,,17 µM
Nc1nc2c(ncn2C[C@]2(CO)C[C@H]2CO)c(=O)[nH]1,,,,0.1–1 µM
O=C1Cn2cc(C(=O)NCc3ccc(Cl)cc3)c(=O)c3cc(CN4CCOCC4)cc(c32)N1,,,,0.06 µM

ECn: concentration that inhibits the pathogen or its effect by n%. Lines come from different laboratories, so protocols vary. Blank or dashed fields: not listed here.